# Data source: PubChem BioAssay AID504761 (Drosophila RNAi Screening Center, 2011)
# Screen: 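Insect host genes that dengue virus relies on to spread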 (primary screen)
# Cell system: D.Mel-2 cells from Drosophila
# Knock-down reagent: long dsRNA against Drosophila genes
# Conditions: infection with dengue virus type 2; dose and infection time not stated
# Measured: 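Cells stained for dengue envelope protein and imaged; percent of infected cells per well on duplicate plates, ranked by infection, with stained nuclei counted for cell number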
# Direction: infection score: higher = more virus-infected cells; cell count: higher = more cells in the well
# Rule for the call: 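Low infection ranks in the two replicates (chance level up to 0.065) followed by a retest with a 1.5-fold or larger significant decrease, p below 0.05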
# Meaning of the calls: active = confirmed: knock-down lowers infection; inactive = not picked or not confirmed
# The deposit covers about 22,000 reagents; below is an unselected part of those with a known target gene and a result. In the full data, 116 (0.52%) got an active call. 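Calls depend on retest data that are not deposited; infection was ranked per plate without normalising between plates; the unit of the infection score is not given.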 Raw values vary from plate to plate and are shown uncorrected. A number with no mark means an inactive call. A plus sign joins genes that one reagent is predicted to hit. Further read-outs or replicates are left out here. Not given: the amount of reagent, the time to read-out.
gene knocked down,amplicon,"infection score, replicate 1","infection score, replicate 2","cell count, replicate 1"
Ac3,DRSC03692,23.1,17.8,6366
CG3492,DRSC04373,9.9,15.8,6543
Pef,DRSC06695,8.9,11.8,6171
dsx,DRSC12649,5.7,0.19,5558
dsx,DRSC16934,14.2,14.1,6281
dsx,DRSC21495,0.81,2.22,5945
dsx,DRSC26707,4.74,3.32,5778
mthl2,DRSC10287,1.97,23.1,6043
mthl2,DRSC27003,7.35,1.86,6789
Pex7,DRSC10651,4.5,1.35,5847
ppk11,DRSC02737,6.96,7.01,5700
Coq4 + frc,DRSC10381,15.4,17.5,6033
Coq4 + frc,DRSC10382,8.26,24.7,4700
Nprl2,DRSC20153,3.35,3.78,6114
GstO3,DRSC10710,2.7,1.89,6215
CG3748,DRSC02716,2.75,6.05,5638
CG3748,DRSC29984,11.2,8.35,6242
robl22E,DRSC00289,2.15,1.56,6095
Mur11Da,DRSC18960,1.88,0.57,6652
ACXD,DRSC07843,5.81,2.86,6022
ACXD,DRSC23762,10,10.3,5558
tub,DRSC12389,18.8,6.73,5500
tub,DRSC22800,4.15,1.59,5611
CG3505,DRSC15489,12.4,13.4,6033
CG9304,DRSC04538,7.03,4.29,6816
CG9304,DRSC26210,16.3,17.8,5480
CG8360,DRSC03085,2.66,13.6,6775
CG8360,DRSC26870,6.25,3.59,6225
lbk,DRSC07178,2.95 (active),2.08,6675
Swip-1,DRSC02083,29.3,20.3,6440
Swip-1,DRSC02084,20.3,6.37,4873
CG9682,DRSC16536,14.4,15,6572
CG9682,DRSC25635,6.22,1.88,6611
CG34149,DRSC14537,8.52,1.82,6823
CG17801,DRSC15273,4.83,2.44,6502
ana,DRSC07579,9.35,2.18,6784
ana,DRSC24236,2.25,4.03,6791
Top3beta,DRSC18724,1.69,5.55,6270
CG5937,DRSC18392,6.79,2.92,4949
CG5937,DRSC26696,3.52,2.01,6081
CG13577,DRSC04213,3.84,12.7,5728
CG6739,DRSC02987,3.92,7.95,6409
RhoGAP68F,DRSC10717,7.85,3.74,6052
CR40450 + CG32767,DRSC18387,2.4,3.92,5912
CG30177,DRSC22680,2.09,3.27,6510
CG16868,DRSC06633,16.8,6.63,5454
Gat,DRSC17144,1.29,2.91,6739
CG10959,DRSC17769,11.9,4.53,6095
CG10959,DRSC29120,21.5,8.15,3856
Poxn,DRSC05589,0.67,0.8,6315
Poxn,DRSC07512,4.86,5.51,6891
Poxn,DRSC23830,7.38,10.6,6264
CG31038,DRSC15051,20.1,6.35,3471
CG31038,DRSC16326,10.9,6.81,4767
CG31038,DRSC16327,,2.73,262
CG31038,DRSC25740,3.44,2.82,6533
Mis12,DRSC10299,4.95,1.66,6177
amos,DRSC03484,12.3,3.74,2817
amos,DRSC24784,2.48,2.42,6049

Individual results from the entries so far.
For “infection score, replicate 2”, Gat [DRSC17144] shows 2.91
Under “cell count, replicate 1”, CG30177 [DRSC22680] has 6510
Under “infection score, replicate 1”, amos [DRSC24784] is entered as 2.48
For “infection score, replicate 1”, CG31038 [DRSC15051] reads 20.1
For “cell count, replicate 1”, CG31038 [DRSC16326] reads 4767
Value for mthl2 [DRSC10287] in “cell count, replicate 1”: 6043
